The values that follow come from patent publication US20230310474A1, “CORONAVIRUS TREATMENT COMPOSITION AND METHOD” (Cleveland State University, priority 2022, published 2023).

Series [1] addresses Nucleocapsid (N) protein, sialidase-treated (desialylated) (SARS-CoV-2) (UniProt P0DTC9). In words: EMSA. As to conditions: protein in a lysate after overexpression. On the technique in general: Mobility shift assays separate free from complexed probe on a gel.
Series [2] addresses Nucleocapsid (N) protein, sialylated (SARS-CoV-2) (UniProt P0DTC9). The series is described as follows: EMSA. To be noted: protein in a lysate after overexpression.
Setting [3] is: single-stranded DNA, variant of 32-mer stem-loop II motif ssRNA (32m).

Results from cells or extracts need not show a direct contact.

Turning to “CGAGGCCACGCGGAGTACGATCGAGGGTACAG [32-mer ssDNA mimic of stem-loop II motif]”, the binding result in series [1] (setting [3]) and in series [2] (setting [3]) was “binds” throughout.

“CGAGGCCACGCGGAGUACGAUCGAGGGUACAG [32-mer stem-loop II motif ssRNA (32m)]”: the binding result in series [1] and in series [2] was “binds” throughout.
